Compound potency records, mixed from different reports. Data source: NIAID ChemDB in PubChem.

All rows: tests in culture; organism: HIV-1

a–b is a range or a potency band. Blank or dashed fields: not listed here. Lines come from different laboratories, so protocols vary. ECn is the concentration giving n% inhibition of infection, replication or growth.

SMILES,changes,strain or isolate,method,cells,read-out,value
CCOC(=O)c1cccn1S(=O)(=O)c1cc(Cl)ccc1NS(=O)(=O)c1ccc(C)cc1,-,IIIB,cytopathic effect / XTT,MT-4,EC50,>41 µM
CC(=O)Oc1ccc(COP(=O)(OCc2ccc(OC(C)=O)cc2)OC[C@@H]2C=C[C@H](n3cc(C)c(=O)[nH]c3=O)O2)cc1,-,-,-,CEM,EC50,0.17 µM
C=Cn1cc(C(=O)O)c(=O)c2ccc(N3CCN(c4ccccn4)CC3)cc21,-,IIIB,MTT,MT-4,EC50,0.08 µM
CCCCCC(=O)Nc1nc(N)nc2c1ncn2[C@H]1CO[C@@H](CO)O1,-,LAV-1,RT activity,PBMC,EC90,>100 µM
COc1ccc(-c2cc(=O)c3c(C)cc(O)cc3o2)cc1,-,RF,cytopathic effect / XTT,CEM + CEM-SS,EC50,67 µM
Nc1cccc(S(=O)(=O)N(CC(O)CN(NCc2ccccc2)C(=O)c2ccccc2)CC2CCCC2)c1,-,IIIB,p24,CEM,EC50,<1 µM
COC(=O)Nc1nc2ccc(S(=O)(=O)N(CC(C)C)C[C@@H](O)[C@H](Cc3ccccc3)NC(=O)COc3c(C)cccc3C)cc2[nH]1,-,LAI WT,cytopathic effect / MTT,MT-4,EC50,0.003 µM
O=C1Nc2sccc2S(=O)(=O)c2ccccc21,-,IIIB,cytopathic effect / MTT,CEM + CEM/O,EC50,>200 µg/mL
O=C(c1cccc(Cl)c1)c1ccc2c(c1)sc(=O)n2Cc1ccccc1,-,IIIB,syncytia,CEM,EC50,>1.6 µg/mL
COC(=O)N[C@H](C(=O)NN(CC[C@@]1(Cc2ccccc2)C(=O)N(C2c3ccccc3C[C@H]2O[Si](C)(C)C(C)(C)C)C[C@@H]1O[Si](C)(C)C(C)(C)C)Cc1ccc(Br)cc1)C(C)(C)C,-,-,XTT,MT-4,EC50,>10 µM
COc1ccc(OC)c(C2SCC(=O)N2CCc2ccccc2)c1,-,IIIB,MTT,MT-2,EC50,303 µM
CC(C)CN(CC(O)Cn1ccnc1S(=O)(=O)c1ccccc1)S(=O)(=O)c1ccccc1,-,IIIB,p24,CEM,EC50,<1 µM
CCOC(=O)c1cccn1S(=O)(=O)c1cc(Cl)ccc1NC(=O)c1ccc(C)cc1,-,IIIB,cytopathic effect / XTT,MT-4,EC50,>200 µM
Cc1cn([C@H]2C[C@H](N=[N+]=[N-])[C@@H](CO)O2)c(=O)[nH]c1=O,-,NL4-3,luciferase,TZM-bl,EC50,0.009434 µM
COC1=C(C2=C(C3=C(O)C(=O)c4ccccc4C3=O)C(=O)c3ccccc3C2=O)C(=O)c2ccc3c(c2C1=O)C=CC(C)(C)O3,-,IIIB,cytopathic effect / MTT,CEM,EC50,8.8 µM
NS(=O)(=O)c1ccc(N2C(=O)CSC2c2ccccc2Cl)cc1,-,IIIB,MTT,MT-2,EC50,8.153 µM
COc1ccc(S(=O)(=O)N(CC(C)C)CC(O)CN2CCN(Cc3cccnc3)C[C@H]2C(=O)NC(C)(C)C)cc1,-,IIIB,p24,CEM,EC50,<1 µM
CCCCCCCC(=O)Nc1nc(N)nc2c1ncn2[C@H]1CO[C@@H](COP(=O)(N[C@@H](C)C(=O)OCC)Oc2ccccc2)O1,-,LAV-1,RT activity,PBMC,EC90,6.6 µM
COC(=O)N[C@H](C(=O)NN(CC[C@@]1(Cc2ccccc2)C(=O)N(C2c3ccccc3C[C@H]2O)C[C@H]1O)Cc1ccc(-c2ccccn2)cc1)C(C)(C)C,-,-,XTT,MT-4,EC50,2.5 µM
CC(C)CN(C[C@@H](O)[C@H](Cc1ccccc1)NC(=O)O[C@H]1CCOC1)S(=O)(=O)c1ccc2ncn(CCc3ccccc3)c2c1,-,LAI WT,cytopathic effect / MTT,MT-4,EC50,0.02 µM
COC(=O)N[C@H](C(=O)NN(CCC[C@@]1(Cc2ccccc2)C(=O)N(C2c3ccccc3C[C@H]2O)C[C@H]1O)Cc1ccc(Br)cc1)C(C)(C)C,-,-,XTT,MT-4,EC50,2.5 µM
Cc1cnc(N2C(=O)CSC2c2c(Cl)cccc2Cl)c(C)c1,-,IIIB,MTT,MT-2,EC50,0.082 µM
CC(=O)Oc1ccccc1COP(=O)(OCc1ccccc1OC(C)=O)OC[C@@H]1C=C[C@H](n2cc(C)c(=O)[nH]c2=O)O1,-,-,-,CEM,EC50,0.12 µM
COc1ccc(S(=O)(=O)N(CC(C)C)CC(O)CC(=O)N2CCN(Cc3cccnc3)C[C@H]2C(=O)NC(C)(C)C)cc1,-,IIIB,p24,CEM,EC90,1 µM
Cc1cc(C#N)cc(C)c1Oc1nc(NC2CCN(CC(=O)N3CCOCC3)CC2)nc2ccsc12,F227L V106A,-,MTT,MT-4,EC50,≥17.9 µg/mL
CCCCCCCCCCCCCCCC(=O)Nc1nc(N)nc2c1ncn2[C@H]1CO[C@@H](COP(=O)(N[C@@H](C)C(=O)OCC)Oc2ccccc2)O1,-,LAV-1,RT activity,PBMC,EC90,0.5 µM
CSc1s[s+]c(SC)c1-c1ccccc1,-,RF,cytopathic effect / XTT,CEM + CEM-SS,EC50,4.5 µM
C=Cn1cc(C(=O)O)c(=O)c2ccc(N3CCN(c4cccc(C(F)(F)F)c4)CC3)cc21,-,IIIB,MTT,MT-4,EC50,0.19 µM
COC(=O)N[C@H](C(=O)NN(CC[C@@]1(Cc2ccccc2)C(=O)N(C2c3ccccc3C[C@H]2O)C[C@H]1O)Cc1ccc(-c2ccncc2)cc1)C(C)(C)C,-,-,XTT,MT-4,EC50,2.5 µM
CCN1c2ncc(CCOc3ccc(-c4ccccc4)cc3)cc2C(=O)N(C)c2cccnc21,RT-K103N Y181C,-,p24,C8166,EC50,>0.05 µM
COC(=O)C(OC(C)(C)C)c1c(C)ccc(C2CC2C)c1-c1ccc2c(c1)CCCO2,-,NL4-3,ATP,MT-4,EC50,0.3 µM
COC(=O)c1ccccc1S(=O)(=O)c1ccsc1N,-,IIIB,cytopathic effect / MTT,CEM + CEM/O,EC50,11 µg/mL
CCCCCCCCCCCC(=O)Nc1nc(N)nc2c1ncn2[C@H]1CO[C@@H](COP(=O)(N[C@@H](C)C(=O)OCC)Oc2ccccc2)O1,-,LAV-1,RT activity,PBMC,EC90,2.9 µM
Cc1cccc(C(=O)c2ccc3c(c2)sc(=O)n3C)c1,-,IIIB,syncytia,CEM,EC50,<1.6 µg/mL
COC(=O)N[C@H](C(=O)NN(CC[C@@]1(Cc2ccccc2)C(=O)N(C2c3ccccc3C[C@H]2O)C[C@@H]1O)Cc1ccc(-c2ccccn2)cc1)C(C)(C)C,-,-,XTT,MT-4,EC50,2.5 µM
Cc1cn(C2CC(N=[N+]=[N-])C(COC(C(=O)O)P(=O)(O)OP(=O)(O)OP(=O)(O)O)O2)c(=O)[nH]c1=O,-,IIIB,cytopathic effect / syncytia,CEM,EC50,≥100 µg/mL
COc1cc(O)c2c(c1)C(=O)c1c(cc3c(c1O)-c1c(cc(C)c(C(=O)N[C@H](C)C(=O)O)c1O)[C@H](O[C@@H]1O[C@H](C)[C@H](N)[C@H](O[C@@H]4OC[C@@H](O)[C@H](O)[C@@H]4O)[C@H]1O)[C@H]3O)C2=O,-,IIIB,antigen,MT-4,EC50,<10 µg/mL
O=C(c1ccc([N+](=O)[O-])cc1)c1ccc2[nH]c(=O)oc2c1,-,IIIB,syncytia,CEM,EC50,>8 µg/mL
Cc1cccc(C)c1OCC(=O)N[C@@H](Cc1ccccc1)[C@H](O)CN(CC(C)C)S(=O)(=O)c1ccc2nc(N)n(C)c2c1,-,LAI WT,cytopathic effect / MTT,MT-4,EC50,0.02 µM
CCCCCCCC/C=C\CCCCCCCC(=O)Nc1nc(N)nc2c1ncn2[C@H]1CO[C@@H](COP(=O)(N[C@@H](C)C(=O)OCC)Oc2ccccc2)O1,-,LAV-1,RT activity,PBMC,EC50,0.77 µM
CCOC(=O)c1cccn1S(=O)(=O)c1cc(Cl)ccc1NC(=O)CC(C)C,-,IIIB,cytopathic effect / XTT,MT-4,EC50,4.6 µM
COc1cccc(/C=C/C(=O)c2ccccc2)c1O,-,RF,cytopathic effect / XTT,CEM + CEM-SS,EC50,23 µM
CCOC(=O)c1cccn1S(=O)(=O)c1cc(Cl)ccc1NC(=O)C(C)(C)C,-,IIIB,cytopathic effect / XTT,MT-4,EC50,>42 µM
O=C(c1ccc(Cl)c(Cl)c1)c1ccc2[nH]c(=O)sc2c1,-,IIIB,syncytia,CEM,EC50,>8 µg/mL
O=C(/C=C/c1ccccc1O)c1ccc(O)cc1O,-,RF,cytopathic effect / XTT,CEM + CEM-SS,EC50,32 µM
CCOC(=O)c1cccn1S(=O)(=O)c1ccc(NC(C)=O)cc1,-,IIIB,cytopathic effect / XTT,MT-4,EC50,>83.8 µM
C[C@H](CS(C)(=O)=O)C(=O)N[C@@H](Cc1ccccc1)[C@H](O)CN1C[C@H]2CCCC[C@H]2C[C@H]1C(=O)NC(C)(C)C,-,-,cytopathic effect / MTT,CEM,EC50,0.052 µM
Cc1[nH]cnc1CS(=O)(=O)N(CC1CCCC1)C[C@@H](O)CN(CCc1ccccc1)C(=O)c1ccccc1,-,IIIB,p24,CEM,EC90,1 µM
CCN1c2ncc(CCOc3ccc(C(=O)Nc4ccccc4C(=O)O)cc3C)cc2C(=O)N(C)c2cccnc21,-,IIIB,p24,C8166,EC50,0.01–0.05 µM
Cc1cn(C2CC(N=[N+]=[N-])C(COC(C(=O)O)P(=O)(O)O)O2)c(=O)[nH]c1=O,-,IIIB,cytopathic effect / syncytia,CEM,EC50,5.6 µg/mL
CCOC(=O)c1cccn1S(=O)(=O)c1ccc(NC=O)cc1,-,IIIB,cytopathic effect / XTT,MT-4,EC50,>114 µM
CCOC(=O)[C@H](C)NP(=O)(OC[C@@H]1OC[C@H](n2cnc3c(NC(C)=O)nc(N)nc32)O1)Oc1ccccc1,-,LAV-1,RT activity,PBMC,EC90,93 µM
CCN1c2ncc(CCOc3ccc(-c4ccc(C(=O)O)o4)cc3C)cc2C(=O)N(C)c2cccnc21,RT-K103N Y181C,-,p24,C8166,EC50,>0.05 µM
O=C(O)c1c(F)c(F)c(S)c(F)c1F,-,RF,cytopathic effect / XTT,CEM + CEM-SS,EC50,125 µM
O=C(O)[C@H]1O[C@@H](Oc2ccc(/C=C/c3cc(O)cc(O)c3)cc2)[C@H](O)[C@@H](O)[C@@H]1O,-,IIIB,RT activity,PBMC,EC50,>300 µM
CC(C)=Nn1cc(C(=O)O)c(=O)c2cc(N)c(N3CCN(c4ccccn4)CC3)cc21,-,IIIB,MTT,MT-4,EC50,>1.11 µM
N[C@@H](CCCCNC1c2ccc3cc4c5c6c(cc7ccc8cc9cc1c1c9c9c8c7c6c9c6c1c2c3c56)C4)C(=O)O,-,-,p24,MT-4,EC50,90 µM
CCN1c2ncc(CCOc3ccc(Nc4ccc(C(=O)O)cn4)cc3C)cc2C(=O)N(C)c2cccnc21,RT-K103N Y181C,-,p24,C8166,EC50,0.01–0.05 µM
Cc1cn([C@H]2C[C@H](N=[N+]=[N-])[C@@H](CO)O2)c(=O)[nH]c1=O,-,IIIB,MTT,MT-4,EC50,0.007 µM
Cn1c([S-])nc2nc(-c3ccccc3)c(-c3ccccc3)nc2c1=O.[Cl][Pt+2][Cl],-,IIIB,cytopathic effect,MT-4,EC50,>2.23 µg/mL
CCOC(=O)c1cccn1S(=O)(=O)c1cc(Cl)ccc1NC(=O)Oc1ccc(C)cc1,-,IIIB,cytopathic effect / XTT,MT-4,EC50,152.5 µM
Nc1sccc1S(=O)(=O)c1ccccc1,-,IIIB,cytopathic effect / MTT,CEM + CEM/O,EC50,23 µg/mL
Cc1cccc(N2C(=O)CSC2c2ccccn2)n1,-,IIIB,MTT,MT-2,EC50,0.078 µM
COC(=O)N[C@H](C(=O)NN(CC[C@]1(Cc2ccccc2)C(=O)N(C2c3ccccc3C[C@H]2O)C[C@H]1O)Cc1ccc(Br)cc1)C(C)(C)C,-,-,XTT,MT-4,EC50,2.5 µM
NC(=O)C[C@H](NC(=O)CNC1c2ccc3cc4c5c6c(cc7ccc8cc9cc1c1c9c9c8c7c6c9c6c1c2c3c56)C4)C(=O)O,-,-,p24,MT-4,EC50,105 µM
COc1ccc(S(=O)(=O)N(CCC(O)CN(CC(C)C)S(=O)(=O)c2ccccc2)CC(C)C)cc1,-,IIIB,p24,CEM,EC90,1 µM
CC(=O)Nc1ccc(Cl)cc1S(=O)(=O)n1ccc(C(C)=O)c1,-,IIIB,cytopathic effect / XTT,MT-4,EC50,>200 µM
COC(=O)N[C@H](C(=O)NN(CC[C@@]1(Cc2ccccc2)C(=O)N(C2c3ccccc3C[C@H]2O)C[C@@H]1O)Cc1ccc(-c2ccncc2)cc1)C(C)(C)C,-,-,XTT,MT-4,EC50,2.5 µM
COC(=O)C(OCC1OC(n2cc(C)c(=O)[nH]c2=O)CC1N=[N+]=[N-])P(=O)(O)OP(=O)(O)OP(=O)(O)O,-,IIIB,cytopathic effect / syncytia,CEM,EC50,>100 µg/mL

For reference, 5 entries again:

CCOC(=O)c1cccn1S(=O)(=O)c1ccc(NC=O)cc1 ; strain or isolate: IIIB ; method: cytopathic effect / XTT ; cells: MT-4 ; read-out: EC50 ; value: >114 µM
COc1ccc(S(=O)(=O)N(CCC(O)CN(CC(C)C)S(=O)(=O)c2ccccc2)CC(C)C)cc1 ; strain or isolate: IIIB ; method: p24 ; cells: CEM ; read-out: EC90 ; value: 1 µM
Nc1cccc(S(=O)(=O)N(CC(O)CN(NCc2ccccc2)C(=O)c2ccccc2)CC2CCCC2)c1 ; strain or isolate: IIIB ; method: p24 ; cells: CEM ; read-out: EC50 ; value: <1 µM
CCOC(=O)c1cccn1S(=O)(=O)c1cc(Cl)ccc1NS(=O)(=O)c1ccc(C)cc1 ; strain or isolate: IIIB ; method: cytopathic effect / XTT ; cells: MT-4 ; read-out: EC50 ; value: >41 µM
Cc1cn(C2CC(N=[N+]=[N-])C(COC(C(=O)O)P(=O)(O)OP(=O)(O)OP(=O)(O)O)O2)c(=O)[nH]c1=O ; strain or isolate: IIIB ; method: cytopathic effect / syncytia ; cells: CEM ; read-out: EC50 ; value: ≥100 µg/mL